Publication PMC10907753 (Communications Biology, 2024)

Chains of the proteins cited; added tags and fusions are not shown.
UniProt A0A0H2X5R2, whole entry H175F/I224F/V291F/I332F: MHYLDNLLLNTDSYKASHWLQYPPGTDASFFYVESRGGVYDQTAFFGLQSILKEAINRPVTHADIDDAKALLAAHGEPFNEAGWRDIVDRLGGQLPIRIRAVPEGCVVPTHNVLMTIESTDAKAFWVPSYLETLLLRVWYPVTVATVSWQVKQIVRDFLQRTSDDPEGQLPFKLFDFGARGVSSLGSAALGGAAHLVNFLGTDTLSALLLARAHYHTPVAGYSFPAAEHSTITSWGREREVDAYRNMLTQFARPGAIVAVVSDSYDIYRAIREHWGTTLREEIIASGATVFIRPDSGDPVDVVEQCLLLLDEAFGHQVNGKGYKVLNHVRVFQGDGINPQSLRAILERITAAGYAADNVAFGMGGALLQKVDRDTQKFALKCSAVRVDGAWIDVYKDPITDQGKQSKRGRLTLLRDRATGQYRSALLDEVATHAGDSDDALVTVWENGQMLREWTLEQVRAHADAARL

Key:
[1] = target: T1, Xcc NAMPT quadruple mutant (Xanthomonas campestris pv. campestris, UniProt A0A0H2X5R2, H175F/I224F/I332F/V291F); assay: Isothermal titration calorimetry (ITC)
[2] = target: T1, Xcc NAMPT quadruple mutant; assay: Determination of IC50 value for FK866

Compound: O=C(/C=C/c1cccnc1)NCCCCC1CCN(C(=O)c2ccccc2)CC1 [FK866]
- Kd ([1]; ITC, 1 mM FK866 into 50 μM mutant, one set of sites model): 6.47 µM
- Kd fold greater than wild-type ([1]; quadruple mutant vs wild-type): about 78 fold
- IC50 ([2]; 3.5 nM enzyme, 15 μM NAM, 50 μM PRPP, 2.5 mM ATP): 0.154 µM
- IC50 fold higher than that of the wild-type enzyme ([2]; quadruple mutant vs wild-type): more than 600 fold
